The supplement of paper PMC11451515

Legend:
Conditions in all cases: 48 h
NOMO1 [1] = test: cell viability relative to DMSO control; higher = less cytotoxic
Outline: (§1)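 Viability is expressed as a percentage of DMSO wells within each plate, and cell-free wells serve as background. Seeding densities in the 1536-well plates (5 μl) were 500 cells/well for NOMO1 or SEM leukemia cells and 1000 cells/well for P12-Ichikawa. Each line was adapted for at least four passages in each medium. Library compounds in DMSO were pin-dosed at 47 μM to 0.79 nM (11 points, threefold), and CellTiter-Glo One luminescence was read after 48 h at 37°C.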

P12-Ichikawa [2] = test: as above
Outline: as §1

SEM cells [3] = test: as above
Outline: as §1

NOMO1 [4] = test: AUC of viability dose-response curve (% viability x log10 dose units); higher = less sensitive
Outline: (§2)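 Leukemia cells adapted to each medium were seeded at 500 or 1000 cells/well in 1536-well plates and dosed with library compounds in DMSO at 11 threefold doses from 47 μM to 0.79 nM for 48 h at 37°C. CellTiter-Glo One luminescence was normalised per plate to DMSO and cell-free wells, then fitted with a four-parameter log-logistic model over log10 doses. Area under the curve was taken from this fit by the trapezoidal rule, with curves above full viability scaled and curves failing quality control removed.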

P12-Ichikawa [5] = test: as above
Outline: as §2

SEM cells [6] = test: as above
Outline: as §2

[7] = HPLM + 10% dialyzed FBS, 0.000781 µM
[8] = HPLM + 10% dialyzed FBS, 0.00234 µM
[9] = HPLM + 10% dialyzed FBS, 0.00702 µM
[10] = HPLM + 10% dialyzed FBS, 0.0211 µM
[11] = HPLM + 10% dialyzed FBS, 0.0632 µM
[12] = HPLM + 10% dialyzed FBS, 0.19 µM
[13] = HPLM + 10% dialyzed FBS, 0.569 µM
[14] = HPLM + 10% dialyzed FBS, 1.71 µM
[15] = HPLM + 10% dialyzed FBS, 5.12 µM
[16] = HPLM + 10% dialyzed FBS, 15.4 µM
[17] = HPLM + 10% dialyzed FBS, 46.1 µM
[18] = RPMI 5 mM glucose + 10% FBS, 0.000781 µM
[19] = RPMI 5 mM glucose + 10% FBS, 0.00234 µM
[20] = RPMI 5 mM glucose + 10% FBS, 0.00702 µM
[21] = RPMI 5 mM glucose + 10% FBS, 0.0211 µM
[22] = RPMI 5 mM glucose + 10% FBS, 0.0632 µM
[23] = RPMI 5 mM glucose + 10% FBS, 0.19 µM
[24] = RPMI 5 mM glucose + 10% FBS, 0.569 µM
[25] = RPMI 5 mM glucose + 10% FBS, 1.71 µM
[26] = RPMI 5 mM glucose + 10% FBS, 5.12 µM
[27] = RPMI 5 mM glucose + 10% FBS, 15.4 µM
[28] = RPMI 5 mM glucose + 10% FBS, 46.1 µM
[29] = RPMI 5 mM glucose + 10% dialyzed FBS, 0.000781 µM
[30] = RPMI 5 mM glucose + 10% dialyzed FBS, 0.00234 µM
[31] = RPMI 5 mM glucose + 10% dialyzed FBS, 0.00702 µM
[32] = RPMI 5 mM glucose + 10% dialyzed FBS, 0.0211 µM
[33] = RPMI 5 mM glucose + 10% dialyzed FBS, 0.0632 µM
[34] = RPMI 5 mM glucose + 10% dialyzed FBS, 0.19 µM
[35] = RPMI 5 mM glucose + 10% dialyzed FBS, 0.569 µM
[36] = RPMI 5 mM glucose + 10% dialyzed FBS, 1.71 µM
[37] = RPMI 5 mM glucose + 10% dialyzed FBS, 5.12 µM
[38] = RPMI 5 mM glucose + 10% dialyzed FBS, 15.4 µM
[39] = RPMI 5 mM glucose + 10% dialyzed FBS, 46.1 µM
[40] = RPMI 5 mM glucose + 10% dialyzed FBS

CCOC(=O)C(=O)CBr
cell viability (NOMO1 [1]; [7]): 105%
cell viability (NOMO1 [1]; [8]): 101%
cell viability (NOMO1 [1]; [9]): 112%
cell viability (NOMO1 [1]; [10]): 99.1%
cell viability (NOMO1 [1]; [11]): 88.8%
cell viability (NOMO1 [1]; [12]): 91.1%
cell viability (NOMO1 [1]; [13]): 108%
cell viability (NOMO1 [1]; [14]): 94%
cell viability (NOMO1 [1]; [15]): 86.9%
cell viability (NOMO1 [1]; [16]): 88.5%
cell viability (NOMO1 [1]; [17]): 58.8%
cell viability (NOMO1 [1]; [18]): 95.8%
cell viability (NOMO1 [1]; [19]): 99.7%
cell viability (NOMO1 [1]; [20]): 97.7%
cell viability (NOMO1 [1]; [21]): 90.9%
cell viability (NOMO1 [1]; [22]): 85.4%
cell viability (NOMO1 [1]; [23]): 73.7%
cell viability (NOMO1 [1]; [24]): 90.3%
cell viability (NOMO1 [1]; [25]): 82.6%
cell viability (NOMO1 [1]; [26]): 72.9%
cell viability (NOMO1 [1]; [27]): 82.6%
cell viability (NOMO1 [1]; [28]): 57.4%
cell viability (NOMO1 [1]; [29]): 89.9%
cell viability (NOMO1 [1]; [30]): 94.8%
cell viability (NOMO1 [1]; [31]): 98.3%
cell viability (NOMO1 [1]; [32]): 91.7%
cell viability (NOMO1 [1]; [33]): 91%
cell viability (NOMO1 [1]; [34]): 90.9%
cell viability (NOMO1 [1]; [35]): 86.2%
cell viability (NOMO1 [1]; [36]): 78.7%
cell viability (NOMO1 [1]; [37]): 84.2%
cell viability (NOMO1 [1]; [38]): 79.9%
cell viability (NOMO1 [1]; [39]): 57.9%
cell viability (P12-Ichikawa [2]; [7]): 98.7%
cell viability (P12-Ichikawa [2]; [8]): 90.9%
cell viability (P12-Ichikawa [2]; [9]): 101%
cell viability (P12-Ichikawa [2]; [10]): 91.4%
cell viability (P12-Ichikawa [2]; [11]): 95.2%
cell viability (P12-Ichikawa [2]; [12]): 89.8%
cell viability (P12-Ichikawa [2]; [13]): 91%
cell viability (P12-Ichikawa [2]; [14]): 89%
cell viability (P12-Ichikawa [2]; [15]): 89.1%
cell viability (P12-Ichikawa [2]; [16]): 86.1%
cell viability (P12-Ichikawa [2]; [17]): 85.7%
cell viability (P12-Ichikawa [2]; [18]): 85%
cell viability (P12-Ichikawa [2]; [19]): 94.3%
cell viability (P12-Ichikawa [2]; [20]): 92.9%
cell viability (P12-Ichikawa [2]; [21]): 95%
cell viability (P12-Ichikawa [2]; [22]): 96.4%
cell viability (P12-Ichikawa [2]; [23]): 91.9%
cell viability (P12-Ichikawa [2]; [24]): 87.5%
cell viability (P12-Ichikawa [2]; [25]): 83.2%
cell viability (P12-Ichikawa [2]; [26]): 82.4%
cell viability (P12-Ichikawa [2]; [27]): 87.9%
cell viability (P12-Ichikawa [2]; [28]): 71.1%
cell viability (P12-Ichikawa [2]; [29]): 87.7%
cell viability (P12-Ichikawa [2]; [30]): 90.4%
cell viability (P12-Ichikawa [2]; [31]): 90%
cell viability (P12-Ichikawa [2]; [32]): 90.3%
cell viability (P12-Ichikawa [2]; [33]): 89.8%
cell viability (P12-Ichikawa [2]; [34]): 84.6%
cell viability (P12-Ichikawa [2]; [35]): 83%
cell viability (P12-Ichikawa [2]; [36]): 81.1%
cell viability (P12-Ichikawa [2]; [37]): 81.9%
cell viability (P12-Ichikawa [2]; [38]): 77.8%
cell viability (P12-Ichikawa [2]; [39]): 67.3%
cell viability (SEM cells [3]; [7]): 110%
cell viability (SEM cells [3]; [8]): 97.7%
cell viability (SEM cells [3]; [9]): 105%
cell viability (SEM cells [3]; [10]): 99.4%
cell viability (SEM cells [3]; [11]): 104%
cell viability (SEM cells [3]; [12]): 96.6%
cell viability (SEM cells [3]; [13]): 94%
cell viability (SEM cells [3]; [14]): 89.9%
cell viability (SEM cells [3]; [15]): 89.2%
cell viability (SEM cells [3]; [16]): 77.7%
cell viability (SEM cells [3]; [17]): 70%
cell viability (SEM cells [3]; [18]): 119%
cell viability (SEM cells [3]; [19]): 120%
cell viability (SEM cells [3]; [20]): 130%
cell viability (SEM cells [3]; [21]): 108%
cell viability (SEM cells [3]; [22]): 113%
cell viability (SEM cells [3]; [23]): 118%
cell viability (SEM cells [3]; [24]): 118%
cell viability (SEM cells [3]; [25]): 123%
cell viability (SEM cells [3]; [26]): 93.3%
cell viability (SEM cells [3]; [27]): 112%
cell viability (SEM cells [3]; [28]): 82.5%
cell viability (SEM cells [3]; [29]): 93.5%
cell viability (SEM cells [3]; [30]): 89.4%
cell viability (SEM cells [3]; [31]): 84.5%
cell viability (SEM cells [3]; [32]): 98.7%
cell viability (SEM cells [3]; [33]): 93.3%
cell viability (SEM cells [3]; [34]): 88.6%
cell viability (SEM cells [3]; [35]): 96.2%
cell viability (SEM cells [3]; [36]): 95.3%
cell viability (SEM cells [3]; [37]): 80.9%
cell viability (SEM cells [3]; [38]): 73.6%
cell viability (SEM cells [3]; [39]): 64.7%
AUC of viability dose-response curve (NOMO1 [4]; HPLM + 10% dialyzed FBS): 454
AUC of viability dose-response curve (NOMO1 [4]; RPMI 5 mM glucose + 10% FBS): 404
AUC of viability dose-response curve (NOMO1 [4]; [40]): 414
AUC of viability dose-response curve (P12-Ichikawa [5]; HPLM + 10% dialyzed FBS): 437
AUC of viability dose-response curve (P12-Ichikawa [5]; RPMI 5 mM glucose + 10% FBS): 422
AUC of viability dose-response curve (P12-Ichikawa [5]; [40]): 403
AUC of viability dose-response curve (SEM cells [6]; HPLM + 10% dialyzed FBS): 433
AUC of viability dose-response curve (SEM cells [6]; RPMI 5 mM glucose + 10% FBS): 454
AUC of viability dose-response curve (SEM cells [6]; [40]): 420
